## HIV-1 5' UTR: effect of mutations on RNA dimer formation

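Mutant RNA libraries with 1G, 2G or 3G starts, with or without cap, were folded at 37 °C for 30 min. Monomer and dimer bands were cut from native gels after folding in high salt (300 mM KCl, 5 mM MgCl2) or low salt (40 mM KCl, 0.1 mM MgCl2). Mutation frequencies in the two bands give Kdimer.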

RNA: 5' end of the HIV-1 NL4-3 genome, made in vitro. Positions 1-437 read:
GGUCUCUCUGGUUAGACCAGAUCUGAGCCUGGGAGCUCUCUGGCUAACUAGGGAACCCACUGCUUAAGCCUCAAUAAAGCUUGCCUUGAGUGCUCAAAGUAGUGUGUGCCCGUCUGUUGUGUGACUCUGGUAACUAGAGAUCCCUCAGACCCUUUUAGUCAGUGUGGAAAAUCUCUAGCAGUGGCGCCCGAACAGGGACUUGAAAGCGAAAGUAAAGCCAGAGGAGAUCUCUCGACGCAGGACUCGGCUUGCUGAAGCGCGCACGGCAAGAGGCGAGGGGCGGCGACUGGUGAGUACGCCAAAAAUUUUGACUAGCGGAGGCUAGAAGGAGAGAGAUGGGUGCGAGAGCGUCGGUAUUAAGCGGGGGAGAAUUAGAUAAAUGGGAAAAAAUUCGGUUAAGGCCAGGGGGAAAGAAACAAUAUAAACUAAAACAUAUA

Scale: median log2 Kdimer over the changes at a position; positive = changes inhibit dimerization, negative = changes enhance it.
Sample: 1G uncapped low-salt.
One numbering serves 1G, 2G and 3G.
A position is written with its base where known.
The source gives no letters past position 437.

position	1G uncapped low-salt
A388	0.16
C260	4.08
A332	0.31
507	0.03
488	0.09
C349	-0.24
C362	-0.10
G270	0.75
A227	1.14
A311	0.75
U115	0.26
503	-0.03
C173	-0.29
C299	-0.52
G164	0.09
A66	-0.12
447	0.00
A225	-0.19
476	0.00
466	0.10
C114	0.37
C193	-0.16
478	0.02
475	0.04
A147	0.10
U306	-0.02
G240	-0.36
C29	-0.11
A235	-1.22
A256	1.90
G395	-0.41
G183	-0.02
U131	0.40
G195	0.43
A132	0.00
G181	-0.69
A371	-0.01
C264	3.09
C152	-0.01
A415	0.00
G224	-0.25
G246	1.87
G186	-0.20
A387	-0.07
G363	0.16
440	-0.04
489	0.01
C28	-0.62
C352	-0.10
C187	-0.19
C218	-0.86
G99	0.09
G394	-0.13
A404	-0.20
A47	-0.31
U308	-0.04
G265	3.09
U113	0.19
G257	1.31
G241	-0.57
U309	0.05
C426	0.08
G223	0.49
G208	-0.27
G339	0.69
A314	-0.21
484	0.08

The first 5 entries again:

position	1G uncapped low-salt
A388	0.16
C260	4.08
A332	0.31
507	0.03
488	0.09

Values reported by Ye et al. 2022 (doi:10.1038/s41594-022-00746-2).